Data: PMC4322620 (Frontiers in Pharmacology, 2015)

By UniProt entry, the sequences of proteins in these tests, tags left out.
UniProt P30989, whole entry, looked up: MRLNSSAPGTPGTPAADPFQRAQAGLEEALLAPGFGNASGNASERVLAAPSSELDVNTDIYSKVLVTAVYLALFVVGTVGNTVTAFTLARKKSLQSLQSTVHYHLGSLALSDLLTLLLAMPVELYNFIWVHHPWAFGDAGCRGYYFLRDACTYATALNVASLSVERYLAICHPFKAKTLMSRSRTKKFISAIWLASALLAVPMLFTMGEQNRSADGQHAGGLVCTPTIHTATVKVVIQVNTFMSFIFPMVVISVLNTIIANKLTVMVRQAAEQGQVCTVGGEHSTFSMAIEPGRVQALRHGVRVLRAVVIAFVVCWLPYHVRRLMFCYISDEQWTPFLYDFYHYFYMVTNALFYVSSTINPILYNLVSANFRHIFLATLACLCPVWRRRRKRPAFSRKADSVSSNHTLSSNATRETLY

Tests used:
[1] = target: neurotensin receptors (HT-29 cells) (Homo sapiens, UniProt P30989); assay: Desensitization of neurotensin receptor activation (calcium mobilization after pre-exposure); assay type: cell-based; conditions: for DC50/EC50: ratio of desensitization to agonist potency; for DC50: 10 min pre-exposure (10 μM–100 pM), wash, 15 min without peptide, re-exposure to same peptide at 1 μM, calcium mobilization, quadruplicate experiments
NTS1 (HT-29 cells) = NTS1 (HT-29 cells) (Homo sapiens, UniProt P30989); assay: Calcium activation assay (intracellular calcium mobilization); assay type: cell-based; conditions: Fluo-4-NW calcium fluorescence, peptide 10 μM–10 pM, % of 1 μM peak response, quadruplicate experiments

Row | Compound | DC50/EC50 [1] | EC50 (NTS1 (HT-29 cells)) [nM] | DC50 [1] [nM]
1 | CC[C@H](C)[C@H](NC(=O)[C@H](Cc1ccc(O)cc1)NC(=O)[C@@H]1CCCN1C(=O)[C@H](CCCCN)NC(=O)[C@H](CCCCN)NC(=O)[C@@H](NC(=O)[C@H](C)NC(=O)[C@H](CC(N)=O)NC(=O)[C@H](CO)NC(=O)CCCCCCNC(=O)[C@H](CCC(=O)O)NC(=O)[C@H](CCC(=O)O)NC(=O)[C@H](CO)NC(=O)[C@@H]1CCC(=O)N1)[C@@H](C)O)C(=O)N[C@@H](CC(C)C)C(=O)O | 168 |  | 
2 | CC[C@H](C)[C@H](NC(=O)[C@H](Cc1ccc(O)cc1)NC(=O)[C@@H]1CCCN1C(=O)[C@H](CCCCN)NC(=O)[C@H](CCCCN)NC(=O)[C@@H](NC(=O)[C@H](C)NC(=O)[C@H](CC(N)=O)NC(=O)[C@H](CCC(=O)O)NC(=O)[C@H](CCC(=O)O)NC(=O)[C@H](CO)NC(=O)[C@@H]1CCC(=O)N1)[C@@H](C)O)C(=O)N[C@@H](CC(C)C)C(=O)O | 22 | 15 | 329
3 | CC[C@H](C)[C@H](NC(=O)[C@H](Cc1ccc(O)cc1)NC(=O)[C@@H]1CCCN1C(=O)[C@H](CCCCN)NC[C@@H](N)CCCCN)C(=O)N[C@@H](CC(C)C)C(=O)O |  | 1.1 | 11.8
4 | CCCCCCCCCCCCCCCC(=O)NCCCC[C@H](NC(=O)[C@H](CCCCN)NC(=O)[C@H](CC(N)=O)NC(=O)[C@H](CO)NC(=O)CNC(=O)CNC(=O)[C@H](CCC(=O)O)NC(=O)[C@H](CCC(=O)O)NC(=O)[C@H](CO)NC(=O)[C@@H]1CCC(=O)N1)C(=O)N[C@@H](CCCCN)C(=O)N[C@@H](CCCCN)C(=O)N1CCC[C@H]1C(=O)N[C@@H](Cc1ccc(O)cc1)C(=O)N[C@H](C(=O)N[C@@H](CC(C)C)C(=O)O)[C@@H](C)CC | 0.1 |  | 
5 | CC[C@H](C)[C@H](NC(=O)[C@H](Cc1ccc(O)cc1)NC(=O)[C@@H]1CCCN1C(=O)[C@H](CCCCN)NC(=O)[C@H](CCCCN)NC(=O)[C@@H](NC(=O)[C@H](C)NC(=O)[C@H](CC(N)=O)NC(=O)[C@H](CO)NC(=O)CNC(=O)CNC(=O)[C@H](CCC(=O)O)NC(=O)[C@H](CCC(=O)O)NC(=O)[C@H](CO)NC(=O)[C@@H]1CCC(=O)N1)[C@@H](C)O)C(=O)N[C@@H](CC(C)C)C(=O)O | 131 | 1.1 | 144
